## Primary screen of a compound library

From ChEMBL document CHEMBL3988442, “University of Dundee, Small-Polar-MMV Screening Library” (2021).

Mtb glucose medium: 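Growth of Mycobacterium tuberculosis over 3 days (7H9 medium with glucose and tyloxapol); the read-out is not stated. Tested at 500 µM. Higher reads as more growth inhibition (inferred: compounds with an IC50 in retests scored well above the rest). Of about 18,000 compounds tested this way, about 1,400 (7.9%) reached 50% or more in at least one test.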
Mtb cholesterol medium: 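Phenotypic screen: M. tuberculosis growth, cholesterol and DPPC medium, 4 days; the read-out is not stated. Tested at 500 µM. Higher reads as more growth inhibition (inferred: compounds with an IC50 in retests scored well above the rest). About 18,000 compounds were tested under these conditions; 5% (about 900) showed 50% or more at least once.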

Results are given as percent effect.
How 0% and 100% were set is not recorded. Most values in the screen are low, and negative values occur.
This is part of a subset picked to be rich in strong results.

Result for COC(C)C(=O)NCCNc1cccc(Br)c1 (configuration not stated) was Mtb glucose medium: -18.59%; Mtb cholesterol medium: -18.6%. For COc1ccc(CCC(=O)NC2(C#N)CCC2)cc1 the result was Mtb glucose medium: 41.71%. Result for c1cncc(CN2CCC(N3CCCC3)CC2)c1 was Mtb glucose medium: 1.77%. For Cc1ccc(C)c(S(=O)(=O)NC2CCS(=O)(=O)C2)c1 (configuration not stated) the result was Mtb glucose medium: 24.82%. Result for O=C(COc1ccc(F)cc1)Nc1ccon1 was Mtb glucose medium: 65.69%; Mtb cholesterol medium: 96.62%.

For CCNc1ccc(C(F)(F)F)cn1 the result was Mtb glucose medium: 11.87%; Mtb cholesterol medium: 1.592%. With COc1ccc(OC)c(CNc2nc(C)nn2C)c1 the screen gave Mtb glucose medium: 79.23%; Mtb cholesterol medium: 64.88%. For CC(NCC1CC1)c1nnc2ccccn12 (configuration not stated) the result was Mtb glucose medium: 9.262%. CC(C)(C)CC(=O)NC1(C)CCS(=O)(=O)C1 (configuration not stated) read Mtb cholesterol medium: 0.799%. COC(CN)C1CCCCC1 (configuration not stated) read Mtb glucose medium: -10.02%.

With COCc1nn(Cc2sc(C)nc2C)c(=O)o1 the screen gave Mtb glucose medium: 7.616%; Mtb cholesterol medium: 2.316%. With COc1cccc(CN2CCS(=O)(=O)CC2)c1OC the screen gave Mtb cholesterol medium: 4.555%. For CC(=O)NC1CCN(Cc2cnc(N(C)C)nc2)C1 (configuration not stated) the result was Mtb glucose medium: -1.404%. With NC1CCN(CC2CCCC2)CC1 the screen gave Mtb cholesterol medium: 32.28%. With CC(O)CCc1ccc2c(c1)OCO2 (configuration not stated) the screen gave Mtb glucose medium: 29.92%; Mtb cholesterol medium: 48.59%.

With CN1CCCN(C(=O)c2cc3c(s2)CCCC3)CC1 the screen gave Mtb glucose medium: 57.54%. With Cn1cc(C(N)CN)cn1 (configuration not stated) the screen gave Mtb glucose medium: -0.2174%. With Cc1occc1C(=O)NCC(F)(F)F the screen gave Mtb cholesterol medium: -0.4743%. CC(C)Oc1ccc(CN)cc1 read Mtb glucose medium: 65.13%; Mtb cholesterol medium: 67.46%. CC(=O)NCC(=O)NCCc1ccc(O)cc1 gave Mtb cholesterol medium: 5.397%.

Result for Cc1nc(CNC(=O)c2cc(C3CC3)[nH]n2)cs1 was Mtb glucose medium: 53.41%. Cc1n[nH]c(NCc2ccsc2)n1 gave Mtb glucose medium: 2.852%; Mtb cholesterol medium: -2.061%. Result for Cc1cccnc1CCNC(=O)Cc1cccnc1 was Mtb glucose medium: 14.94%. Result for N#Cc1ccc(NCC(=O)NC2CCOCC2)cc1 was Mtb glucose medium: 9.593%. Result for CS(=O)(=O)N[C@@H]1CCCC[C@H]1N was Mtb glucose medium: -1.775%.

CCC1C(=O)NCCN1CCCOC (configuration not stated) read Mtb glucose medium: -10.4%. Result for CCC(C(N)=O)N1CCC(c2nncn2C)CC1 (configuration not stated) was Mtb glucose medium: 3.037%. Result for CCN(CCS(=O)(=O)c1ccccc1)CC(=O)N(C)C was Mtb glucose medium: 92.27%; Mtb cholesterol medium: 94.61%. CC(CO)S(=O)(=O)Cc1nccn1Cc1ccccc1 (configuration not stated) gave Mtb cholesterol medium: 15.93%. Cc1ccc(NC(=O)NC2CCN(C)CC2)cc1 read Mtb cholesterol medium: -18.94%.

Result for COCCS(=O)(=O)NCC(C)(O)c1cccs1 (configuration not stated) was Mtb glucose medium: 10.19%. With N#Cc1c(F)cccc1NCCSCCCO the screen gave Mtb glucose medium: 69.32%; Mtb cholesterol medium: 69.41%. For CN(C)C(=O)CCN1CCCC1c1ccsc1 (configuration not stated) the result was Mtb glucose medium: 53.25%. Result for CN(C)c1ccc(C(=O)Nc2ccncc2)cc1 was Mtb cholesterol medium: -0.3988%. Result for COc1cccc(CN)n1 was Mtb glucose medium: 34.75%; Mtb cholesterol medium: 6.173%.

COc1ccc(Cl)cc1C(O)CN (configuration not stated) read Mtb glucose medium: 20.47%. Result for CC(=O)Nc1ccc(F)c(S(=O)(=O)N2CCOCC2)c1 was Mtb glucose medium: 11.69%. With Cc1nn(CCN(C)c2ccccc2)c(N)c1C#N the screen gave Mtb glucose medium: 65.82%; Mtb cholesterol medium: 38.62%. Cn1nccc1CNC1CC1 read Mtb cholesterol medium: -0.8033%.